In patent US20080020981A1, “Non-nucleoside reverse transcriptase inhibitors” (Roche Palo Alto LLC, priority 2006, published 2008):

Molecular target: HIV-RT enzyme (HIV-1 reverse transcriptase) (Human immunodeficiency virus type 1 group M subtype B, UniProt P03366)
Experiment: HIV-1 Reverse Transcriptase Assay Inhibitor IC50 Determination (RNA-dependent DNA polymerase activity, SPA)
Details: read-out: HIV-RT IC50, 30 min at 30°

Row | Compound | IC50
1 | Cc1cc(S(N)(=O)=O)ccc1NC(=O)COc1ccc(Br)c(Oc2cc(C#N)cc(C#N)c2)c1F | 0.0191 µM
2 | Cc1cc(S(N)(=O)=O)ccc1NC(=O)COc1ccc(Cl)c(Oc2cc(C#N)cc(C3CC3)c2)c1F | 0.0184 µM
